Data taken from patent US20130065857A1, “NOVEL DXR INHIBITORS FOR ANTIMICROBIAL THERAPY” (Baylor College of Medicine, priority 2009, published 2013).
Structures were worked out from names or drawings and are uncertain.

Amino acid sequences for entries named in this document (tags omitted).
UniProt P45568, whole entry: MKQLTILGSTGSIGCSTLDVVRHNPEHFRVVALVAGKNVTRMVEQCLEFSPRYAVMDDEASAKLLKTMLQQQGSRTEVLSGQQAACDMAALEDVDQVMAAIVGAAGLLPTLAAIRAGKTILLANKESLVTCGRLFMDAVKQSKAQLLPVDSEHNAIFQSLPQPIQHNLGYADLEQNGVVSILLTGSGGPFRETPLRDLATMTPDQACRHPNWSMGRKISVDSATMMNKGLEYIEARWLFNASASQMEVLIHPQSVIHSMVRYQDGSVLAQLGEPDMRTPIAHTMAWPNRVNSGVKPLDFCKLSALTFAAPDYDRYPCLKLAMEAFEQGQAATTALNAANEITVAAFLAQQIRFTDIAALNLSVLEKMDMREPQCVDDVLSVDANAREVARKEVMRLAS

Target: E. coli DXR (Escherichia coli, UniProt P45568)
Details: 100 µM

For O=P(O)(O)Cc1ccccn1 [compound 17], which inhibition is on record?
Its inhibition is 25.7%.
